Pooled drug test results. Numbers come from NIAID ChemDB, via PubChem.

Common to all: target-level tests; species: HIV-1; protein: Reverse transcriptase; read-out: Ki

Blank or dashed fields: not listed here. Conditions beyond the fields shown may differ between rows.

compound	strain	mutations	read by	conditions	value
Oc1ccc(CCNC(=S)Nc2ccc(Br)cn2)cc1	-	-	nucleotide incorporation	-	104 µM
Cc1cc(C)cc(C(=O)c2cc(Cl)ccc2OCCN2C(=O)NC(=O)C(C)C2C)c1	-	V106A	RT activity	pseudotyped	>8.6 µM
Nc1ncnc2c1ncn2CC(CF)OCP(=O)(O)OP(=O)(O)OP(=O)(O)O	-	-	nucleotide incorporation	-	0.034 µM
[B-][P@](=O)(OC[C@H]1O[C@@H](n2cc(C)c(=O)[nH]c2=O)C[C@@H]1N=[N+]=[N-])OP(=O)(O)C(F)(F)P(=O)(O)O	-	-	fluorescence	-	0.0096 µM
Cc1cn([C@H]2CC[C@@H](COP(=O)(O)OP(=O)(O)OP(=O)(O)O)O2)c(=O)[nH]c1=O	-	RT-WT	RT activity	-	0.02 µM
C[C@@H](NC(=S)Nc1ccccn1)C1CCCCC1	IIIB	-	nucleotide incorporation	-	100 µM
Cc1cn([C@H]2C[C@H](O)[C@@H](COP(=O)(O)NP(=O)(O)OP(=O)(O)O)O2)c(=O)[nH]c1=O	-	-	-	-	2.4 µM
O=c1c2cccn2ccn1CCNC(=S)Nc1ccc(Br)cn1	-	RT-K103N	nucleotide incorporation	-	0.017 µM
CCOCn1c(Cc2ccccc2)c(C(C)C)c(=O)[nH]c1=O	IIIB	RT-V106A	RT activity	-	0.73 µM
O=C(O[C@@H]1Cc2c(O)cc(O)cc2O[C@@H]1c1ccc(O)c(O)c1)c1cc(O)c(O)c(O)c1	LAV	-	-	-	0.0028 µM
Nc1ncnc2c1ncn2CCOCP(=O)(O)OP(=O)(O)OP(=O)(O)O	-	-	nucleotide incorporation / radiometric	-	0.09 µM
O=c1[nH]c(=O)n([C@H]2C[C@H](F)[C@@H](COP(=O)(O)OP(=O)(O)OP(=O)(O)O)O2)cc1Cl	HXB2	-	nucleotide incorporation	-	0.05 µM
O=c1cc(-c2ccccc2)oc2cc(O)c(O)c(O)c12	-	-	-	-	2.52 µM
Nc1nc2c(ncn2[C@H]2CO[C@@H](COP(=O)(O)OP(=O)(O)OP(=O)(O)O)O2)c(=O)[nH]1	-	-	-	-	0.019 µM
Nc1ccn([C@@H]2CS[C@H](COP(=O)(O)OP(=O)(O)OP(=O)(O)O)O2)c(=O)n1	-	-	fluorescence	-	0.188 µM
Cc1ccc2c(c1)n(CCNC(=S)Nc1ccc(Br)cn1)c(=O)c1cccn12	-	-	nucleotide incorporation	-	0.02 µM
Cc1cn([C@H]2C=C[C@@H](COP(=O)(O)OP(=O)(O)OP(=O)(O)O)O2)c(=O)[nH]c1=O	-	RT-H208Y	-	-	0.004 µM
Cc1cn([C@H]2C=C[C@@H](COP(=O)(O)OP(=O)(O)OP(=O)(O)O)O2)c(=O)[nH]c1=O	-	-	-	-	5.2 µM
Nc1nc2c(ncn2[C@H]2C=C[C@@H](COP(=O)(O)OP(=O)(O)OP(=O)(O)O)C2)c(=O)[nH]1	-	-	-	-	0.09 µM
Nc1ccn([C@H]2CC[C@@H](COP(=O)(O)OP(=O)(O)OP(=O)(O)O)O2)c(=O)n1	HXB2	-	nucleotide incorporation	-	5.1 µM
O=C(O)c1c[nH]c2ccc(Cl)cc2c1=O	-	-	nucleotide incorporation / radiometric	-	6.2 µM
COc1ccc2c(c1)N(C(=O)OC(C)C)[C@@H](CSC)C(=S)N2	IIIB	-	RT activity	-	0.01 µM
O=C1c2cccnc2C(=O)N1CCNC(=S)Nc1ccc(Br)cn1	-	RT-V106A	nucleotide incorporation	-	0.1 µM
O=C(O)[C@H]1O[C@@H](Oc2cc3oc(-c4ccccc4)cc(=O)c3c(O)c2O)[C@H](O)[C@@H](O)[C@@H]1O	LAV	-	-	-	1.5 µM
Nc1ccn([C@@H]2CS[C@H](COP(=O)(O)OP(=O)(O)OP(=O)(O)O)O2)c(=O)n1	-	-	nucleotide incorporation / radiometric	-	1.3 µM
Fc1ccc(CCNC(=S)Nc2ccc(Br)cn2)cc1	-	-	scintillation proximity	-	7.8 µM
COc1ccc(/C=C/NC(=O)Nc2ccc(Cl)cn2)cc1OC	-	RT-V106A	nucleotide incorporation	-	20 µM
Nc1ccn([C@H]2O[C@@H](COP(=O)(CP(=O)(O)O)OP(=O)(O)O)C(O)[C@H]2O)c(=O)n1	-	-	RNase H	-	225 µM
Nc1ccn([C@H]2CC[C@@H](COP(=O)(O)OP(=O)(O)OP(=O)(O)O)O2)c(=O)n1	-	RT-M184V	nucleotide incorporation / radiometric	-	1.8 µM
Cc1cn([C@H]2C[C@H](N=[N+]=[N-])[C@@H](COP(=O)(O)OP(=O)(O)C(F)(F)P(=O)(O)O)O2)c(=O)[nH]c1=O	-	-	-	-	0.041 µM
O=[N+]([O-])c1ccc(CCNC(=S)Nc2ccc(Br)cn2)cc1	-	-	nucleotide incorporation	-	84 µM
Cc1cn([C@H]2CC[C@@H](COP(=O)(O)OP(=O)(O)OP(=O)(O)O)O2)c(=O)[nH]c1=O	-	-	fluorescence	-	0.0052 µM
Nc1nc2c(ncn2[C@@H]2C=C[C@H](COP(=O)(O)OP(=O)(O)OP(=O)(O)O)C2)c(=O)[nH]1	-	RT-M184V	-	-	30 µM
COc1ccc(CCNC(=S)Nc2ccc(Br)cn2)cc1	-	-	scintillation proximity	-	1.2 µM
O=c1c2nccn2c2ccccc2n1CCNC(=S)Nc1ccc(Br)cn1	-	RT-Y181I	nucleotide incorporation	-	1.45 µM
O=c1c2cccn2c2ccccc2n1CCNC(=S)Nc1ccc(Br)cn1	-	RT-K103N	nucleotide incorporation	-	0.1 µM
O=C(O)C1=C[C@@H](OC(=O)c2cc(O)c(O)c(O)c2)[C@@H](OC(=O)c2cc(O)c(O)c(O)c2)[C@H](OC(=O)c2cc(O)c(O)c(O)c2)C1	-	-	-	-	0.05 µM
Cc1cn([C@H]2C[C@H](N=[N+]=[N-])[C@@H](COP([O-])(=S)OP(=O)(O)C(F)(F)P(=O)(O)O)O2)c(=O)[nH]c1=O	-	-	fluorescence	-	0.09 µM
O=c1cc(-c2ccccc2)oc2cc(O)c(O)c(O)c12	-	-	nucleotide incorporation	-	2.52 µM
Nc1nc(=O)n([C@@H]2CC[C@H](COP(=O)(O)OP(=O)(O)OP(=O)(O)O)O2)cc1F	-	RT-Q151M	nucleotide incorporation / radiometric	-	3.3 µM
Cc1cn([C@H]2C[C@H](N=[N+]=[N-])[C@@H](COP(=O)(O)OP(=O)(O)C(F)(F)P(=O)(O)O)O2)c(=O)[nH]c1=O	-	-	RT activity	-	2.23 µM
O=c1c2cccn2c2cc(Cl)c(Cl)cc2n1CCNC(=S)Nc1ccc(Br)cn1	-	RT-L100I	nucleotide incorporation	-	0.25 µM
Nc1nc2c(ncn2[C@H]2C=C[C@@H](COP(=O)(O)OP(=O)(O)OP(=O)(O)O)C2)c(=O)[nH]1	-	-	-	-	0.021 µM
Cc1cc(C)cc(C(=O)c2cc(Cl)ccc2OCCN2CCC(=O)NC2=O)c1	-	-	RT activity	pseudotyped	2.4 µM
O=C(/C=C/c1ccc(O)c2c1[C@H](C(=O)O)[C@@H](c1ccc(O)c(O)c1)O2)O[C@H](Cc1ccc(O)c(O)c1)C(=O)O	IIIB	-	nucleotide incorporation	-	0.8 µM
Cc1cn([C@H]2C=C[C@@H](COP(=O)(O)OP(=O)(O)OP(=O)(O)O)O2)c(=O)[nH]c1=O	-	-	fluorescence	-	0.0032 µM
Cc1cn([C@@H]2C=C[C@H](COP(=O)(O)OP(=O)(O)OP(=O)(O)O)O2)c(=O)[nH]c1=O	-	-	-	-	15 µM
[B-][P@](=O)(OC[C@H]1O[C@@H](n2cc(C)c(=O)[nH]c2=O)C[C@@H]1N=[N+]=[N-])OP(=O)(O)OP(=O)(O)O	-	-	-	-	0.009 µM

Repeating the final 6 entries:

compound | strain | mutations | read by | conditions | value
Nc1nc2c(ncn2[C@H]2C=C[C@@H](COP(=O)(O)OP(=O)(O)OP(=O)(O)O)C2)c(=O)[nH]1 | - | - | - | - | 0.021 µM
Cc1cc(C)cc(C(=O)c2cc(Cl)ccc2OCCN2CCC(=O)NC2=O)c1 | - | - | RT activity | pseudotyped | 2.4 µM
O=C(/C=C/c1ccc(O)c2c1[C@H](C(=O)O)[C@@H](c1ccc(O)c(O)c1)O2)O[C@H](Cc1ccc(O)c(O)c1)C(=O)O | IIIB | - | nucleotide incorporation | - | 0.8 µM
Cc1cn([C@H]2C=C[C@@H](COP(=O)(O)OP(=O)(O)OP(=O)(O)O)O2)c(=O)[nH]c1=O | - | - | fluorescence | - | 0.0032 µM
Cc1cn([C@@H]2C=C[C@H](COP(=O)(O)OP(=O)(O)OP(=O)(O)O)O2)c(=O)[nH]c1=O | - | - | - | - | 15 µM
[B-][P@](=O)(OC[C@H]1O[C@@H](n2cc(C)c(=O)[nH]c2=O)C[C@@H]1N=[N+]=[N-])OP(=O)(O)OP(=O)(O)O | - | - | - | - | 0.009 µM